PubChem BioAssay AID504761 | Drosophila RNAi Screening Center, 2011

- Aim: 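Fly genes whose silencing reduces dengue virus type 2 infection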 (primary screen)
- Cell system: D.Mel-2 cells from Drosophila
- Reagents: long dsRNA against Drosophila genes
- Challenge: infection with dengue virus type 2; dose and infection time not stated
- Measured: 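Cells stained for dengue envelope protein and imaged; percent of infected cells per well on duplicate plates, ranked by infection, with stained nuclei counted for cell number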
- Scale: infection score: higher = more virus-infected cells; cell count: higher = more cells in the well
- Hit rule: 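Low infection ranks in the two replicates (chance level up to 0.065) followed by a retest with a 1.5-fold or larger significant decrease, p below 0.05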
- Meaning of the calls: active = confirmed: knock-down lowers infection; inactive = not picked or not confirmed
In all, the deposit lists about 22,000 reagents; below is an unselected part of those that have a named target and a result. Over the whole deposit, 116 (0.52%) got an active call. 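Calls depend on retest data that are not deposited; infection was ranked per plate without normalising between plates; the unit of the infection score is not given.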 The raw values are shown without normalisation. Unmarked entries are inactive. Reagents against one gene are numbered here. A plus sign joins genes that one reagent is predicted to hit. Reagent sequences are not shown. Not given: the amount of reagent, the time to read-out.

gene | reagent no. | infection score, replicate 1 | infection score, replicate 2 | cell count, replicate 1 | cell count, replicate 2
atms | 1 | 12.2 | 15.8 | 3651 | 3657
atms | 2 | 13.9 | 9.4 | 4561 | 4626
CG13449 | 1 | 2.47 | 1.46 | 5536 | 5832
CG6931 | 1 | 26.4 | 7.76 | 4229 | 5501
HIP + HIP-R | 1 | 1.53 | 2.4 | 6134 | 6595
HIP + HIP-R | 2 | 4.99 | 8.17 | 7054 | 5495
CG14070 | 1 | 2.22 | 1.65 | 6792 | 6731
Dtwd2 + Obp84a | 1 | 4.19 | 22.9 | 6513 | 2259
Dtwd2 + Obp84a | 2 | 4.07 | 2.14 | 6432 | 7042
CG14854 | 1 | 5.91 | 10.8 | 6729 | 6547
CG15650 | 1 | 3.37 | 5.47 | 6703 | 6872
MESK2 | 1 | 6.01 | 6.84 | 6711 | 6522
MESK2 | 2 | 21.7 | 15 | 5184 | 5304
RpL21 | 1 | 4.33 | 4.08 | 1225 | 1496
CG33461 | 1 | 0.93 | 0.68 | 5942 | 6439
CG33461 | 2 | – | 15.5 | 613 | 5545
Nelf-A | 1 | 3.14 | 2.62 | 6268 | 5943

Continued; the last 2 above are carried over.
gene | reagent no. | infection score, replicate 1 | infection score, replicate 2 | cell count, replicate 1 | cell count, replicate 2
CG33461 | 2 | – | 15.5 | 613 | 5545
Nelf-A | 1 | 3.14 | 2.62 | 6268 | 5943
Mgat1 | 1 | 1.37 | 1.94 | 6425 | 5782
Xrcc2 | 1 | 3.05 | 10.5 | 6292 | 5957
Xrcc2 | 2 | – | 12.6 | 311 | 3188
cola + swif | 1 | 4.61 | 17.4 | 6918 | 6268
cola + swif | 2 | 3.29 | 6.07 | 6755 | 5473
CG13955 | 1 | 6.33 | 12.5 | 6687 | 6005
CG43333 | 1 | 4.25 | 5.3 | 6123 | 6134
CG43333 | 2 | 1.76 | 24.5 | 170 | 6174
CG10428 | 1 | 10 | 6.64 | 6632 | 6118
Asciz | 1 | 1.19 | 6.76 | 6281 | 6136
BEAF-32 + CG42254 (retired record) | 1 | 1.31 | 1.39 | 6042 | 6103
Tim13 | 1 | 1.72 | 4.55 | 5682 | 6171
CG11345 | 1 | 3.72 | 3.59 | 6283 | 5599
CG11345 | 2 | 4.59 | 4.09 | 850 | 5082
Ir7c | 1 | 4.08 | 2.93 | 5778 | 6222
upd1 | 1 | 14.7 | 14.9 | 4490 | 6005
upd1 | 2 | 18.3 | 13.1 | 5660 | 4521
CG31848 | 1 | 8.56 | 3.07 | 5888 | 6249
AcCoAS | 1 | 1.9 | 3.97 | 6530 | 6894
AcCoAS | 2 | 5.08 | 22.3 | 6279 | 2954
AcCoAS | 3 | 4.32 | 0.84 | 5625 | 6182
AcCoAS | 4 | 12.9 | 0.88 | 5676 | 6855
